A mixed list of measured activities; the numbers were collected in NIAID ChemDB.

Common to all: target-level tests

Neighbouring rows are from separate reports. An empty or dashed field is not shown. Inhibition is in % at the dose shown (toxicity tests: loss of growth or viability). a–b is a range or a potency band. ICn is the concentration giving n% inhibition.

COc1cc(C)c(S(=O)(=O)N(Cc2ccccc2Br)[C@@H](Cc2ccccc2)C(=O)O)c(C)c1C ; target: RNA-dependent RNA polymerase ; species: Hepatitis C virus ; read-out: IC50 ; result: 5–20 µM
CC1CNCCC1C(=O)N(C(=O)c1ccc(Cl)cc1Cl)c1cc(-c2ccccc2)sc1C(=O)O.O=C(O)C(F)(F)F ; target: NS3 ATPase ; species: Hepatitis C virus ; read-out: IC50 ; result: <5 µM
O=C(Nc1ccsc1-c1nc(C(=O)O)c(O)c(=O)[nH]1)OCCc1ccc2ccccc2c1 ; target: HCV polymerase ; species: Hepatitis C virus ; read-out: IC50 ; result: <25 µM
O=C(Nc1ccc2[nH]ncc2c1)c1cc(N2CCN(CCO)CC2)c(F)cc1F ; dose: 0.01 µg/mL ; target: Reverse transcriptase ; species: Hepatitis B virus ; read-out: inhibition ; result: 20%
O=C(O)c1nc(-c2cc3ccccc3cn2)[nH]c(=O)c1O ; target: HCV polymerase ; species: Hepatitis C virus ; read-out: IC50 ; result: <100 µM
O=C1NC(=S)S/C1=C/c1ccc(-c2cccc(Cl)c2)o1 ; target: NS5B polymerase ; species: Hepatitis C virus ; read-out: IC50 ; result: ≤30 µM
O=C(Nc1ccc2cn[nH]c2c1)c1cc(C2CCNCCN2)c(F)cc1F ; dose: 0.1 µg/mL ; target: Nonstructural protein 5B ; species: Hepatitis C virus ; read-out: inhibition ; result: 5%
O=C(O)[C@H](Cc1ccccc1)N(Cc1ccc(-c2cc(C(F)(F)F)ccc2Cl)o1)C(=O)c1ccc(Cl)cc1Cl ; target: RNA-dependent RNA polymerase ; species: Hepatitis C virus ; read-out: IC50 ; result: <5 µM
O=C(Nc1cscc1-c1nc(C(=O)O)c(O)c(=O)[nH]1)NS(=O)(=O)c1cccc([N+](=O)[O-])c1 ; target: HCV polymerase ; species: Hepatitis C virus ; read-out: IC50 ; result: <25 µM
NN1C(=O)/C(=C\c2ccc(-c3cccc(Cl)c3)o2)SC1=S ; target: NS5B polymerase ; species: Hepatitis C virus ; read-out: IC50 ; result: ≤30 µM
O=C(Nc1ccc2cn[nH]c2c1)c1cc(N2CCNCC2)c(F)cc1F ; dose: 1 µg/mL ; target: Nonstructural protein 5B ; species: Hepatitis C virus ; read-out: inhibition ; result: 24%
O=C(Cc1ccccc1)Nc1cccc(-c2nc(C(=O)O)c(O)c(=O)[nH]2)c1 ; target: HCV polymerase ; species: Hepatitis C virus ; read-out: IC50 ; result: <100 µM
C/C(=C1\SC(=S)N(NS(=O)(=O)c2ccccc2)C1=O)c1ccc(Cl)c(Cl)c1 ; target: NS5B polymerase ; species: Hepatitis C virus ; read-out: IC50 ; result: ≤30 µM
O=C(NCc1cccs1)Nc1ccsc1-c1nc(C(=O)O)c(O)c(=O)[nH]1 ; target: HCV polymerase ; species: Hepatitis C virus ; read-out: IC50 ; result: <25 µM
CC(C)c1ccc(S(=O)(=O)Nc2cc(-c3ccccc3)sc2C(=O)O)cc1 ; target: NS3 ATPase ; species: Hepatitis C virus ; read-out: IC50 ; result: 5–20 µM
O=C(Nc1ccc2[nH]ncc2c1)c1cc(N2CCNCC2)c(F)cc1F ; dose: 1 µg/mL ; target: Nonstructural protein 5B ; species: Hepatitis C virus ; read-out: inhibition ; result: 42%
CC(C)(C)OC(=O)N1CCC(N(C(=O)c2ccc(Cl)cc2Cl)c2cc(-c3ccccc3)sc2C(=O)O)C1 ; target: NS3 ATPase ; species: Hepatitis C virus ; read-out: IC50 ; result: <5 µM
O=C(Nc1ccc2cn[nH]c2c1)c1cc(N2CCC(O)CC2)c(F)cc1F ; dose: 1 µg/mL ; target: Reverse transcriptase ; species: Hepatitis B virus ; read-out: inhibition ; result: 42%
Cc1ccccc1S(=O)(=O)Nc1cc(-c2ccc(C(F)(F)F)cc2)sc1C(=O)O ; target: NS3 ATPase ; species: Hepatitis C virus ; read-out: IC50 ; result: <5 µM
O=C(Nc1cscc1-c1nc(C(=O)O)c(O)c(=O)[nH]1)NS(=O)(=O)c1ccc2ccccc2c1 ; target: HCV polymerase ; species: Hepatitis C virus ; read-out: IC50 ; result: <25 µM
CC(=O)c1ccc(-c2cc(NS(=O)(=O)c3ccccc3C)c(C(=O)O)s2)cc1 ; target: NS3 ATPase ; species: Hepatitis C virus ; read-out: IC50 ; result: <5 µM
CN1CCN(c2cc(C(=O)Nc3ccc4[nH]ncc4c3)c(F)cc2F)CC1 ; dose: 0.1 µg/mL ; target: Reverse transcriptase ; species: Hepatitis B virus ; read-out: inhibition ; result: 56%
O=C(O)c1nc(-c2ccc([N+](=O)[O-])s2)[nH]c(=O)c1O ; target: HCV polymerase ; species: Hepatitis C virus ; read-out: IC50 ; result: <25 µM
O=C(O)[C@H](Cc1ccccc1)N(Cc1ccc(-c2ccc(F)c(Cl)c2)o1)C(=O)c1ccc(Cl)cc1Cl ; target: RNA-dependent RNA polymerase ; species: Hepatitis C virus ; read-out: IC50 ; result: <5 µM
CC(C)[C@@H]1CC[C@@H](C)C[C@H]1OCC(=O)Nc1ccsc1-c1nc(C(=O)O)c(O)c(=O)[nH]1 ; target: HCV polymerase ; species: Hepatitis C virus ; read-out: IC50 ; result: <25 µM
O=C(Nc1ccc2[nH]ncc2c1)c1cc(NCc2ccccn2)c(F)cc1F ; dose: 1 µg/mL ; target: Nonstructural protein 5B ; species: Hepatitis C virus ; read-out: inhibition ; result: 50%
NC(=O)c1cccc(S(=O)(=O)NC(=O)Nc2cscc2-c2nc(C(=O)O)c(O)c(=O)[nH]2)c1 ; target: HCV polymerase ; species: Hepatitis C virus ; read-out: IC50 ; result: <25 µM
CCCC(=O)N(C)c1cc(-c2ccccc2)sc1C(=O)O ; target: NS3 ATPase ; species: Hepatitis C virus ; read-out: IC50 ; result: 5–20 µM
COc1ccc(/C=C2/SC(=S)N(NS(=O)(=O)c3ccccc3)C2=O)cc1 ; target: NS5B polymerase ; species: Hepatitis C virus ; read-out: IC50 ; result: ≤30 µM
Cc1cc(Cl)ccc1C(=O)N(Cc1cccc(Br)c1)[C@@H](Cc1ccccc1)C(=O)O ; target: RNA-dependent RNA polymerase ; species: Hepatitis C virus ; read-out: IC50 ; result: <5 µM
O=C(Nc1cc(-c2ccccc2)sc1C(=O)O)c1cccs1 ; target: NS3 ATPase ; species: Hepatitis C virus ; read-out: IC50 ; result: 5–20 µM
C=CC(=O)NCC(=O)N1C[C@H](Oc2nccc3ccc(Br)cc23)C[C@H]1C(=O)N[C@]1(C(=O)NS(=O)(=O)C2CC2)C[C@H]1C=C ; target: Nonstructural protein 3/4A ; species: Hepatitis C virus ; method: FRET ; read-out: IC50 ; strain or isolate: 1b WT ; result: 0.004 µM
CN1CCN(c2cc(C(=O)Nc3ccc4cn[nH]c4c3)c(F)cc2F)CC1 ; dose: 1 µg/mL ; target: Reverse transcriptase ; species: Hepatitis B virus ; read-out: inhibition ; result: 53%
CCOC(=O)CC(c1cccs1)C(Cc1ccc(C)cc1)N(Cc1cccc(-c2cc3ccccc3o2)c1)S(=O)(=O)c1c(C)cc(OC)c(C)c1C ; target: RNA-dependent RNA polymerase ; species: Hepatitis C virus ; read-out: IC50 ; result: 5–20 µM
CC(=O)c1cc(-c2cc(NS(=O)(=O)c3ccc(C)cc3C)c(C(=O)O)s2)cs1 ; target: NS3 ATPase ; species: Hepatitis C virus ; read-out: IC50 ; result: <5 µM

The first 5 rows once more:

| smiles | dose | target | species | method | read-out | strain or isolate | result |
|---|---|---|---|---|---|---|---|
| COc1cc(C)c(S(=O)(=O)N(Cc2ccccc2Br)[C@@H](Cc2ccccc2)C(=O)O)c(C)c1C | - | RNA-dependent RNA polymerase | Hepatitis C virus | - | IC50 | - | 5–20 µM |
| CC1CNCCC1C(=O)N(C(=O)c1ccc(Cl)cc1Cl)c1cc(-c2ccccc2)sc1C(=O)O.O=C(O)C(F)(F)F | - | NS3 ATPase | Hepatitis C virus | - | IC50 | - | <5 µM |
| O=C(Nc1ccsc1-c1nc(C(=O)O)c(O)c(=O)[nH]1)OCCc1ccc2ccccc2c1 | - | HCV polymerase | Hepatitis C virus | - | IC50 | - | <25 µM |
| O=C(Nc1ccc2[nH]ncc2c1)c1cc(N2CCN(CCO)CC2)c(F)cc1F | 0.01 µg/mL | Reverse transcriptase | Hepatitis B virus | - | inhibition | - | 20% |
| O=C(O)c1nc(-c2cc3ccccc3cn2)[nH]c(=O)c1O | - | HCV polymerase | Hepatitis C virus | - | IC50 | - | <100 µM |